Anti-infective test results gathered from many reports (values: NIAID ChemDB through PubChem).

Common to all: whole-cell or culture tests; organism: Mycobacterium tuberculosis

Percent inhibition refers to the dose given; in toxicity tests it is the harm to the cells.

compound,endpoint,cells,method,strain,dose,result
O=C(Cc1csc2nc(-c3ccc(Cl)cc3)cn12)NN1C(=O)CSC12CCCCC2,EC50,-,-,H37Rv,-,>6.25 µg/mL
CC(=O)c1ccc(N2CCC(C(=O)c3ccc4c(c3)OCO4)CC2)cc1,MIC50,-,turbidity,BioA underexpression strain,-,>50 µM
CC1CCC(=NNC(=O)Cc2csc3nc(-c4ccc(Cl)cc4)cn23)CC1,MIC,-,-,H37Rv,-,>6.25 µg/mL
CO[C@H]1/C=C/O[C@@]2(C)Oc3c(C)c(O)c4c(O)c(c5c(c4c3C2=O)NC2(CCN(CC(C)C)CC2)N=5)=NC(=O)/C(C)=C\C=C\[C@H](C)[C@H](O)[C@@H](C)[C@@H](O)[C@@H](C)[C@H](OC(C)=O)[C@@H]1C,MIC90,-,-,6 strains (rifampicin-resistant),-,12.5 µg/mL
CCN(CC)CCN1c2ccc(C)cc2Sc2ccc3ccccc3c21,MIC,-,-,H37Rv,-,6.25 µg/mL
CC(=O)c1ccc(N2CCN(C(=O)c3cccnc3)CC2)cc1,MIC50,-,turbidity,BioA overexpression strain,-,>50 µM
C[C@]1(COc2ccc(N3CCC(Oc4ccc(OC(F)(F)F)cc4)CC3)cc2)Cn2cc([N+](=O)[O-])nc2O1,MIC90,-,-,31 strains (INH-susceptible),-,0.012 µg/mL
N#Cc1c(-c2cccnc2)nc(N2CCOCC2)[nH]c1=O,MIC,-,-,H37Ra,-,>50 µg/mL
CN=C(N=Nc1c(O)[nH]c2ccccc12)SCC(=O)c1ccccc1,MIC,-,-,H37Rv,-,12.5 µg/mL
OC(c1cc(-c2ccccc2)nc2ccc(Cl)cc12)C1CCCCN1,MIC bound,-,resazurin,H37Rv,-,<6.25 µg/mL
CCCC(=O)N1CCN(c2ccc(C(C)=O)cc2)CC1,MIC50,-,turbidity,BioA overexpression strain,-,>50 µM
CCCN(CCC)N(CCC)C(=O)COc1cc2c(O)c3c(O)c(C)c4c(c13)C(=O)[C@@](C)(O/C=C/[C@H](OC)[C@@H](C)[C@@H](OC(C)=O)[C@H](C)[C@H](O)[C@H](C)[C@@H](O)[C@@H](C)/C=C/C=C(/C)C(=O)N2)O4,MIC,-,-,H37Rv,-,0.09 µg/mL
COc1cc2c(cc1O)C(=O)c1[nH]c3ccccc3c1CC2,MIC bound,-,resazurin,H37Rv,-,>6.25 µg/mL
CN1CCN(c2nc(-c3ccc(F)cc3)c(C#N)c(=O)[nH]2)CC1,MIC,-,-,H37Ra,-,>50 µg/mL
COCCCn1c2c([n+](C)c1C)C(=O)c1ccccc1C2=O,MIC bound,-,resazurin,H37Rv,-,>6.25 µg/mL
O=C(COc1ccccc1)N=Nc1c(O)n(CN2CCOCC2)c2ccccc12,MIC,-,-,H37Rv,-,>12.5 µg/mL
CN(C)c1ccc2nc3ccc(=O)cc-3sc2c1,inhibition,-,BACTEC,H37Rv,12.5 µg/mL,99%
CC1SC2(CCCCC2)N(NC(=O)Cc2csc3nc(-c4ccccc4)cn23)C1=O.O.O,MIC,VERO,-,H37Rv,-,6.25 µg/mL
O=C(/C=C/c1ccc(O)c(O)c1)O[C@H]1[C@H](O)C[C@](O)(C(=O)O)C[C@H]1OC(=O)/C=C/c1ccc(O)c(O)c1,inhibition,-,BACTEC,H37Rv,12.5 µg/mL,0%
CCCCNc1nc(-c2cccnc2)c(C#N)c(=O)[nH]1,MIC,-,-,H37Ra,-,>50 µg/mL
O=S1(=O)c2cccc(c2)NC(=S)/C([n+]2ccccc2)=C(/[O-])c2ccc(cc2)CC2CCCCN21,MIC,-,BACTEC,H37Rv,-,≥12.5 µg/mL
CC(=O)c1ccc(N2CCC(C(=O)c3cccc(Cl)c3)CC2)cc1,MIC90,-,turbidity,BioA underexpression strain,-,>50 µM
CCNC(=O)c1cc(NC(=O)c2ccc(C(=O)Nc3cc(C(=O)NCC)cc(C4=NCCN4)c3)cc2)cc(C2=NCCN2)c1,inhibition,-,resazurin,H37Rv,6.25 µg/mL,69%
CC(C)N=c1cc2n(-c3ccc(Cl)cc3)c3ccccc3nc-2cc1Nc1ccc(Cl)cc1,MIC,-,-,MTB12 (PZA-resistant),-,0.12 µg/mL
OC(c1cc(-c2ccccc2)nc2c(Cl)cc(Cl)cc12)C1CCCCN1,inhibition,-,resazurin,H37Rv,6.25 µg/mL,100%
N#Cc1c(-c2ccc(F)cc2)nc(NCc2ccccc2)[nH]c1=O,MIC,-,-,H37Ra,-,>50 µg/mL
CC1=Nc2cc(Cl)c(Cl)cc2N(C)/C1=C/C1=C(Cl)C(=O)c2cc3c(Cl)ccc(Cl)c3cc2C1=O,MIC bound,-,resazurin,H37Rv,-,>6.25 µg/mL
CC(=O)c1ccc(N2CCN(C(=O)c3ccc4c(c3)OCCO4)CC2)cc1,MIC50,-,turbidity,Wild type without biotin,-,>50 µM
O=C1C(=Cc2c(O)cc(O)cc2O)C(=O)c2ccccc21,MIC bound,-,BACTEC,H37Rv,-,>12.5 µg/mL
Cc1ccc(-c2nc(N3CCOCC3)[nH]c(=O)c2C#N)cc1,MIC,-,-,H37Ra,-,>50 µg/mL
Clc1ccc(Nc2cc3nc4ccccc4n(-c4ccc(Cl)c(Cl)c4)c-3cc2=NC2CCNCC2)cc1Cl,MIC,-,-,2230 (SM INH RIF-RES),-,0.25 µg/mL
Cc1noc(NS(=O)(=O)c2ccc(NC(=S)/N=C/c3c(O)[nH]c(=O)[nH]c3=O)cc2)c1C,inhibition,-,BACTEC,H37Rv,12.5 µg/mL,11%
CC1COc2c(N3CCN(C)CC3)c(F)cc3c(=O)c(C(=O)O)cn1c23,MIC,-,BACTEC,08-685,-,1 µg/mL
CCN=c1cc2n(-c3ccc(Cl)cc3)c3ccccc3nc-2cc1Nc1ccc(Cl)cc1,MIC,-,-,2225 (SM INH RIF-RES),-,0.25 µg/mL
CC1CCCC2(C1)SC(C)C(=O)N2NC(=O)Cc1csc2nc(-c3ccc(Cl)cc3)cn12,MIC,-,-,H37Rv,-,>6.25 µg/mL
C[C@@H]1CN(c2c(F)c(N)c3c(=O)c(C(=O)O)cn(C4CC4)c3c2F)C[C@H](C)N1,MIC50,-,-,20 strains,-,≤0.01 µg/mL
O=C(Cc1cccs1)N/N=C/c1ccccc1Cl,MIC,-,resazurin,H37Rv (ATCC 27294),-,>100 µg/mL
COc1ccc(-c2nc(NCCCN3CCOCC3)[nH]c(=O)c2C#N)cc1,MIC,-,-,H37Ra,-,>50 µg/mL
CC1CCC2(CC1)SC(C)C(=O)N2NC(=O)Cc1csc2nc(-c3ccccc3)cn12,MIC,VERO,-,H37Rv,-,3.13 µg/mL
Cc1ccc(-c2nc(Nc3ccc(F)cc3)[nH]c(=O)c2C#N)cc1,MIC,-,-,H37Ra,-,>50 µg/mL
CO[C@H]1/C=C/O[C@@]2(C)Oc3c(C)c(O)c4c(O)c(cc(OCC(=O)N(C)C(C)(C)C)c4c3C2=O)NC(=O)/C(C)=C\C=C\[C@H](C)[C@H](O)[C@@H](C)[C@@H](O)[C@@H](C)[C@H](OC(C)=O)[C@@H]1C,MIC,-,-,H37Rv,-,0.37 µg/mL
CCC1CCC(=NNC(=O)Cc2csc3nc(-c4ccccc4)cn23)CC1,EC50,-,-,H37Rv,-,>6.25 µg/mL
O.O=C(CSc1nc2ccccc2c(=O)n1-c1ccccc1)N=Nc1c(O)n(CN2CCOCC2)c2ccccc12,MIC,-,-,H37Rv,-,>12.5 µg/mL
CC1=C/N\C(C#N)=C(C#N)/N=C/C(C)=C\N\C(C#N)=C(C#N)/N=C\1,inhibition,-,resazurin,H37Rv,6.25 µg/mL,3%
CC(=O)c1ccc(-c2cn(Cc3cccc(Cl)c3)nn2)cc1,MIC50,-,turbidity,Wild type without biotin,-,>50 µM
CCC1CCC(=NNC(=O)Cc2csc3nc(-c4ccc(Cl)cc4)cn23)CC1,EC50,-,-,H37Rv,-,<6.25 µg/mL
CCN1CCN(c2ccc(Nc3ccnc4ccc5nn(C)nc5c34)cc2)CC1,inhibition,-,resazurin,H37Rv,6.25 µg/mL,32%
CC1CCC(=NNC(=O)Cc2csc3nc(-c4ccccc4)cn23)CC1,EC50,-,-,H37Rv,-,>6.25 µg/mL
O=C(Cc1cccs1)N/N=C/c1cccnc1,MIC,-,resazurin,H37Rv (ATCC 27294),-,>100 µg/mL
CO[C@H]1/C=C/O[C@@]2(C)Oc3c(C)c(O)c4c(O)c(c5c(c4c3C2=O)NC2(CCN(CC(C)C)CC2)N=5)=NC(=O)/C(C)=C\C=C\[C@H](C)[C@H](O)[C@@H](C)[C@@H](O)[C@@H](C)[C@H](OC(C)=O)[C@@H]1C,MIC,-,-,H37Rv,-,0.035 µg/mL
CC[C@]1(O)C[C@H]2CN(CCC3=C(NC4CC=CC=C34)[C@@](C(=O)OC)(c3cc4c(cc3OC)N(C)[C@H]3[C@@](O)(C(=O)NCCCCCCCCCCCC(=O)O)[C@H](O)[C@]5(CC)C=CCN6CC[C@]43[C@@H]65)C2)C1,MIC,-,BACTEC,H37Rv,-,≥12.5 µg/mL
CCN(C(=O)COc1cc2c(O)c3c(O)c(C)c4c(c13)C(=O)[C@@](C)(O/C=C/[C@H](OC)[C@@H](C)[C@@H](OC(C)=O)[C@H](C)[C@H](O)[C@H](C)[C@@H](O)[C@@H](C)/C=C/C=C(/C)C(=O)N2)O4)N1CCOCC1,MIC,-,-,H37Rv,-,0.37 µg/mL
O=C(Cc1cccs1)N/N=C/c1ccccc1,MIC,-,resazurin,H37Rv (ATCC 27294),-,>100 µg/mL
CCCNc1nc(-c2ccc(F)cc2)c(C#N)c(=O)[nH]1,MIC,-,-,H37Ra,-,>50 µg/mL
CO[C@H]1/C=C/O[C@@]2(C)Oc3c(C)c(O)c4c(O)c(cc(OCC(=O)NC(C)C)c4c3C2=O)NC(=O)/C(C)=C\C=C\[C@H](C)[C@H](O)[C@@H](C)[C@@H](O)[C@@H](C)[C@H](OC(C)=O)[C@@H]1C,MIC,-,-,H37Rv,-,0.075 µg/mL
O=C(Cc1cccs1)N/N=C/c1ccccc1F,MIC,-,resazurin,H37Rv (ATCC 27294),-,>100 µg/mL
CC(=O)NNc1nc(C)c(C(/C=C/c2ccc(Cl)cc2)=N/NS(=O)(=O)c2ccc(C)cc2)s1,inhibition,-,resazurin,H37Rv,6.25 µg/mL,-8%
COc1ccccc1/C=N/NC(=O)Cc1cccs1,MIC,-,resazurin,H37Rv (ATCC 27294),-,>100 µg/mL
CC1COc2c(N3CCN(C)CC3)c(F)cc3c(=O)c(C(=O)O)cn1c23,MIC90,-,-,20 strains,-,0.1–0.2 µg/mL
C[C@H]1COc2c(N3CCN(C)CC3)c(F)cc3c(=O)c(C(=O)O)cn1c23,MIC90,-,-,25 strains,-,0.39 µg/mL
CC(=O)c1ccc(N2CCN(C(=O)c3cccc(Cl)c3)CC2)cc1,MIC90,-,turbidity,BioA overexpression strain,-,>50 µM
CC(=O)OCC1=CC2OC(=O)C3=COC(OC4OC(CO)C(O)C(O)C4O)C1C32,MIC,-,BACTEC,H37Rv,-,≥128 µg/mL
CCNC(=S)N=Nc1c(O)[nH]c2ccc(Br)cc12,EC50,-,-,H37Rv,-,<12 µg/mL
CO[C@H]1/C=C/O[C@@]2(C)Oc3c(C)c(O)c4c(O)c(c(/C=N/N5CCN(C)CC5)c(O)c4c3C2=O)NC(=O)/C(C)=C\C=C\[C@H](C)[C@H](O)[C@@H](C)[C@@H](O)[C@@H](C)[C@H](OC(C)=O)[C@@H]1C,MIC90,-,-,23 strains (rifampicin-resistant),-,100 µg/mL
CC1(C)C(=O)N(O)C(C)(C)N1N=O,inhibition,-,BACTEC,H37Rv,12.5 µg/mL,0%
CO[C@H]1/C=C/O[C@@]2(C)Oc3c(C)c(O)c4c(O)c(cc(OCC(=O)N5CCCCC5)c4c3C2=O)NC(=O)/C(C)=C\C=C\[C@H](C)[C@H](O)[C@@H](C)[C@@H](O)[C@@H](C)[C@H](OC(C)=O)[C@@H]1C,MIC,-,-,H37Rv,-,0.005 µg/mL
COc1cc2c(cc1OC)C1C(=O)c3c(O)cc4c(c3OC1CO2)C=CC(C)(C)O4,inhibition,-,BACTEC,H37Rv,12.8 µg/mL,-1%
Nc1nc(-n2cc(C(=O)O)c(=O)c3cc(F)c(N4CC(O)C4)c(Cl)c32)c(F)cc1F,MIC50,-,-,22 strains (rifampicin-susceptible),-,0.39 µg/mL
CCN(CC)CCN(CC)C(=O)COc1cc2c(O)c3c(O)c(C)c4c(c13)C(=O)[C@@](C)(O/C=C/[C@H](OC)[C@@H](C)[C@@H](OC(C)=O)[C@H](C)[C@H](O)[C@H](C)[C@@H](O)[C@@H](C)/C=C/C=C(/C)C(=O)N2)O4,MIC,-,-,H37Rv,-,0.075 µg/mL
CCC(C)N1CCN(c2cc(=O)c3nc4c(oc3c2)c2c(=O)c3c(O)c(C)c5c(c34)=C(O)[C@@](C)(O/C=C/[C@H](OC)[C@@H](C)[C@@H](OC(C)=O)[C@H](C)[C@H](O)[C@H](C)[C@@H](O)[C@@H](C)/C=C/C=C(/C)C(=O)N2)O5)CC1,MIC,-,-,H37Rv,-,0.017 µg/mL
O=C(c1cccc(Cl)c1)N1CCN(c2ccc([N+](=O)[O-])cc2)CC1,MIC90,-,turbidity,BioA underexpression strain,-,25.6 µM
CN1C(=O)C(N=Nc2ccc([N+](=O)[O-])cc2)SC1=S,MIC bound,-,BACTEC,H37Rv,-,>12.8 µg/mL
O=C(Cc1cccs1)N/N=C/c1ccccc1Br,MIC,-,resazurin,H37Rv (ATCC 27294),-,>100 µg/mL

The first 6 rows once more:

O=C(Cc1csc2nc(-c3ccc(Cl)cc3)cn12)NN1C(=O)CSC12CCCCC2 ; endpoint: EC50 ; strain: H37Rv ; result: >6.25 µg/mL
CC(=O)c1ccc(N2CCC(C(=O)c3ccc4c(c3)OCO4)CC2)cc1 ; endpoint: MIC50 ; method: turbidity ; strain: BioA underexpression strain ; result: >50 µM
CC1CCC(=NNC(=O)Cc2csc3nc(-c4ccc(Cl)cc4)cn23)CC1 ; endpoint: MIC ; strain: H37Rv ; result: >6.25 µg/mL
CO[C@H]1/C=C/O[C@@]2(C)Oc3c(C)c(O)c4c(O)c(c5c(c4c3C2=O)NC2(CCN(CC(C)C)CC2)N=5)=NC(=O)/C(C)=C\C=C\[C@H](C)[C@H](O)[C@@H](C)[C@@H](O)[C@@H](C)[C@H](OC(C)=O)[C@@H]1C ; endpoint: MIC90 ; strain: 6 strains (rifampicin-resistant) ; result: 12.5 µg/mL
CCN(CC)CCN1c2ccc(C)cc2Sc2ccc3ccccc3c21 ; endpoint: MIC ; strain: H37Rv ; result: 6.25 µg/mL
CC(=O)c1ccc(N2CCN(C(=O)c3cccnc3)CC2)cc1 ; endpoint: MIC50 ; method: turbidity ; strain: BioA overexpression strain ; result: >50 µM

MIC bound comes from a single tested concentration. Rows are shuffled and stem from different studies. a–b is a range or a potency band. Blank or dashed fields: not listed here. MIC50, MIC90 and the like: level of inhibition, or share of isolates inhibited. ECn is the concentration giving n% inhibition of infection, replication or growth.